Assay results reported in US20230332126.

What was measured:
[1] = tested on: SNAP25 substrate (SEQ ID NO: 25)
[2] = tested on: full-length human recombinant SNAP23 protein (23 kDa)
[3] = tested on: SNAP23 substrate (SEQ ID NO: 24)

Substance: wild type BoNT/A light chain (SEQ ID NO: 1)
- Km (SNAP25) [1]: 3.4 µM
- Vmax (SNAP25) [1]: 0.52 mP·µM·s^-1
- kcat (SNAP25) [1]: 52 s⁻¹
- kcat/Km (SNAP25) [1]: 1.5e+07 M⁻¹ s⁻¹
- in vitro cleavage, anti-SNAP23 Western blot (400 nM, 37° C., 1 hour) [2]: The untreated, wtLC/A, and wtLC/E lanes provided negative controls
- Km (SNAP23) [3]: und.
- Vmax (SNAP23) [3]: und.
- kcat (SNAP23) [3]: und.
- kcat/Km (SNAP23) [3]: und.
